Test results: article PMC7551932 (Toxins, 2020)

Sequences of proteins named here, by UniProt entry; tags and fusion partners are left off. A line that says so, or that is headed by a name, gives the form on record, which may keep a tag or linker.
UniProt Q15858, other isoform, or with tags, fused parts or gaps: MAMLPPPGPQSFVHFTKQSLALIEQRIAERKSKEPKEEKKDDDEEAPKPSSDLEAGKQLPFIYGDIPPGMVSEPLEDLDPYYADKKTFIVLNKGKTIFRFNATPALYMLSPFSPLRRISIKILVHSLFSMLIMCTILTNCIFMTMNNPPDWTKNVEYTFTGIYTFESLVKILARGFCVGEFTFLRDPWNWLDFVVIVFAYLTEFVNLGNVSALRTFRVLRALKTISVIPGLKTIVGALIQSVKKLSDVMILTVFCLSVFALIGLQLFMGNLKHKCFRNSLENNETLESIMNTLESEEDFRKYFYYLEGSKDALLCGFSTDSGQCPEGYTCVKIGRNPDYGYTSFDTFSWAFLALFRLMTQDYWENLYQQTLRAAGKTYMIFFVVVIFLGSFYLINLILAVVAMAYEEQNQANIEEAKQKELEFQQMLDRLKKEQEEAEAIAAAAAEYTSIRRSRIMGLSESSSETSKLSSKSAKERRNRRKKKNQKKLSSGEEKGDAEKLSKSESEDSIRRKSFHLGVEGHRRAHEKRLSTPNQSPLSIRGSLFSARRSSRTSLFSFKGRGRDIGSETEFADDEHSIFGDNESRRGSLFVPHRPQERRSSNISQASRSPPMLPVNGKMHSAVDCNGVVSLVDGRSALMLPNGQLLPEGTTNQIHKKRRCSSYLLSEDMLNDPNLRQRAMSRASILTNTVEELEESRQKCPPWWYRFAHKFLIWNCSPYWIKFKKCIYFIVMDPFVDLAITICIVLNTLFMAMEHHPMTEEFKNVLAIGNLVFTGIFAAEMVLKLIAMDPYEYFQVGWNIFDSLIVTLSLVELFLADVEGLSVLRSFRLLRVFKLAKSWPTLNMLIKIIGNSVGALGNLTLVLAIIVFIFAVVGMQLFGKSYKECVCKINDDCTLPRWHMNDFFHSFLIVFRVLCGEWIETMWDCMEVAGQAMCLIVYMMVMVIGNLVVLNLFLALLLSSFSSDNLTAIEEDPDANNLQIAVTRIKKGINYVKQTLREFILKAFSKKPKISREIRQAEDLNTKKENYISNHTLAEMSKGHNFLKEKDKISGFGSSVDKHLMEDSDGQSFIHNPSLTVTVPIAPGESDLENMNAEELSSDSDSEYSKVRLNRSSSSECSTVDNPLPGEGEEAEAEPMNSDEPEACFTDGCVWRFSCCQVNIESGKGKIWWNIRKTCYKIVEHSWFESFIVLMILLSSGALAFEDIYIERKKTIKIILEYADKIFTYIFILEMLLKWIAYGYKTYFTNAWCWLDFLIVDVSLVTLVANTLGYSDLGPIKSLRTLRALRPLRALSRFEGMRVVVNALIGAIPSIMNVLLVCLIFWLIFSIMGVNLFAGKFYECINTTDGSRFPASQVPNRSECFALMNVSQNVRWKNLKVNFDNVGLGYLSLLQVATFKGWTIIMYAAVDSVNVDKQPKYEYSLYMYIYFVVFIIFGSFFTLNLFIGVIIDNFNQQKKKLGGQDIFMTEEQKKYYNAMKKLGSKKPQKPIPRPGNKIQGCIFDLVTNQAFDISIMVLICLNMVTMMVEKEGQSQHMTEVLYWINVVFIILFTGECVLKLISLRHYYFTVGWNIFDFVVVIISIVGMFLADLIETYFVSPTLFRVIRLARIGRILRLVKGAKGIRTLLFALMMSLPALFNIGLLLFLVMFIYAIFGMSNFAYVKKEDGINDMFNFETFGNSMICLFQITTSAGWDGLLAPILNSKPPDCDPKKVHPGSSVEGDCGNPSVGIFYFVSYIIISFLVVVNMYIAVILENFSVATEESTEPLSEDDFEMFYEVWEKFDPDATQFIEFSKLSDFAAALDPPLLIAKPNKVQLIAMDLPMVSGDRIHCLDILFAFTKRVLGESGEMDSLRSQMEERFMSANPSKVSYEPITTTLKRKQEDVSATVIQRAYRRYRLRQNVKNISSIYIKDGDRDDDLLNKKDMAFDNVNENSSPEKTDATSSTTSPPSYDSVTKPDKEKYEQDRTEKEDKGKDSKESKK
UniProt P04775, whole entry: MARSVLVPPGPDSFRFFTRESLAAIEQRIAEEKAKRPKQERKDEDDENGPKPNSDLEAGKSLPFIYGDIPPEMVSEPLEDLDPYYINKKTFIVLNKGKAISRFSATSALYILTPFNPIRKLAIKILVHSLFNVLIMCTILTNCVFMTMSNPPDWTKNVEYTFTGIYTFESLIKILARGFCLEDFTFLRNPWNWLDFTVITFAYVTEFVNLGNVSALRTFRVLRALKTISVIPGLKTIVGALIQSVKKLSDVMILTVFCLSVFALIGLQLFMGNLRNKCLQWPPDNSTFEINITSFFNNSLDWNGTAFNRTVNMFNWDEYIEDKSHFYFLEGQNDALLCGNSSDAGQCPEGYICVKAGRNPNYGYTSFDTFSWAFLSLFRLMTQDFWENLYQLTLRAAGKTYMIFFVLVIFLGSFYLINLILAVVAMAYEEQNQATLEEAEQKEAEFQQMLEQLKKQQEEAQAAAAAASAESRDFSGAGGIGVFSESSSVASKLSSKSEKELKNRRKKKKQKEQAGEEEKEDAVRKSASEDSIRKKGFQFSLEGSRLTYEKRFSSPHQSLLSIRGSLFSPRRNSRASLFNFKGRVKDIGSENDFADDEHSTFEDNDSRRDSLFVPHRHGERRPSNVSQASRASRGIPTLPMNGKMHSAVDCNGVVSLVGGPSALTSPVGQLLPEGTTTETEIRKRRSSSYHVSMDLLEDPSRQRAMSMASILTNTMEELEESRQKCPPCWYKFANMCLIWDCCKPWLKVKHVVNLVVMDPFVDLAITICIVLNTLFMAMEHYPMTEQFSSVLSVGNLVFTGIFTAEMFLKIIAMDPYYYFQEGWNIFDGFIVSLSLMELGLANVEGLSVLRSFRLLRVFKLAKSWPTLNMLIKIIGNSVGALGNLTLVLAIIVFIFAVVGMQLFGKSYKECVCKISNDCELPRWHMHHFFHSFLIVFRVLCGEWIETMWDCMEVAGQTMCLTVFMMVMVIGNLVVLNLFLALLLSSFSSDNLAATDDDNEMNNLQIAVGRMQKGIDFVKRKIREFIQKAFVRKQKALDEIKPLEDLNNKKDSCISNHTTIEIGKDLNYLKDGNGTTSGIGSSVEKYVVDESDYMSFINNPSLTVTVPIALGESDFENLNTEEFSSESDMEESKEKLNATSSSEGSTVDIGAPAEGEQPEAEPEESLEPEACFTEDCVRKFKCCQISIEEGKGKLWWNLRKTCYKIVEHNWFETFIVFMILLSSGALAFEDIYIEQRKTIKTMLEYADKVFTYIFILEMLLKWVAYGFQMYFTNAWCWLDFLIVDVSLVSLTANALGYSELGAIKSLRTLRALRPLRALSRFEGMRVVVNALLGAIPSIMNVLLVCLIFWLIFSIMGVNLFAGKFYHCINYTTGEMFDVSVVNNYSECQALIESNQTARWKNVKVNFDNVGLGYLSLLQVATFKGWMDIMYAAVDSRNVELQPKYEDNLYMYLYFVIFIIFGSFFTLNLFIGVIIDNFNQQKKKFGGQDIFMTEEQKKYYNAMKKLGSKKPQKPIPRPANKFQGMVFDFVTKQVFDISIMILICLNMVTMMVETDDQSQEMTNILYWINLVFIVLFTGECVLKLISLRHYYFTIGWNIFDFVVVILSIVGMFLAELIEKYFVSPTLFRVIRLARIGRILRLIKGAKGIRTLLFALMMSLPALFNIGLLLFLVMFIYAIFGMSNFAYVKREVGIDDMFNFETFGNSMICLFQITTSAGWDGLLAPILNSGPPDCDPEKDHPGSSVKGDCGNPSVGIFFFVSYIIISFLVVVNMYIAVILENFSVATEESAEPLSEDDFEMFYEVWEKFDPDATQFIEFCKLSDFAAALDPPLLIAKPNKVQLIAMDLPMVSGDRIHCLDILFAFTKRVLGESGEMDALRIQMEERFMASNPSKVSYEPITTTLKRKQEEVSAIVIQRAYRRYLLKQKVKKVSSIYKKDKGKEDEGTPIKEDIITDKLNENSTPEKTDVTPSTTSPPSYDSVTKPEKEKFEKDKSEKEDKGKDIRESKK
UniProt P15390, whole entry: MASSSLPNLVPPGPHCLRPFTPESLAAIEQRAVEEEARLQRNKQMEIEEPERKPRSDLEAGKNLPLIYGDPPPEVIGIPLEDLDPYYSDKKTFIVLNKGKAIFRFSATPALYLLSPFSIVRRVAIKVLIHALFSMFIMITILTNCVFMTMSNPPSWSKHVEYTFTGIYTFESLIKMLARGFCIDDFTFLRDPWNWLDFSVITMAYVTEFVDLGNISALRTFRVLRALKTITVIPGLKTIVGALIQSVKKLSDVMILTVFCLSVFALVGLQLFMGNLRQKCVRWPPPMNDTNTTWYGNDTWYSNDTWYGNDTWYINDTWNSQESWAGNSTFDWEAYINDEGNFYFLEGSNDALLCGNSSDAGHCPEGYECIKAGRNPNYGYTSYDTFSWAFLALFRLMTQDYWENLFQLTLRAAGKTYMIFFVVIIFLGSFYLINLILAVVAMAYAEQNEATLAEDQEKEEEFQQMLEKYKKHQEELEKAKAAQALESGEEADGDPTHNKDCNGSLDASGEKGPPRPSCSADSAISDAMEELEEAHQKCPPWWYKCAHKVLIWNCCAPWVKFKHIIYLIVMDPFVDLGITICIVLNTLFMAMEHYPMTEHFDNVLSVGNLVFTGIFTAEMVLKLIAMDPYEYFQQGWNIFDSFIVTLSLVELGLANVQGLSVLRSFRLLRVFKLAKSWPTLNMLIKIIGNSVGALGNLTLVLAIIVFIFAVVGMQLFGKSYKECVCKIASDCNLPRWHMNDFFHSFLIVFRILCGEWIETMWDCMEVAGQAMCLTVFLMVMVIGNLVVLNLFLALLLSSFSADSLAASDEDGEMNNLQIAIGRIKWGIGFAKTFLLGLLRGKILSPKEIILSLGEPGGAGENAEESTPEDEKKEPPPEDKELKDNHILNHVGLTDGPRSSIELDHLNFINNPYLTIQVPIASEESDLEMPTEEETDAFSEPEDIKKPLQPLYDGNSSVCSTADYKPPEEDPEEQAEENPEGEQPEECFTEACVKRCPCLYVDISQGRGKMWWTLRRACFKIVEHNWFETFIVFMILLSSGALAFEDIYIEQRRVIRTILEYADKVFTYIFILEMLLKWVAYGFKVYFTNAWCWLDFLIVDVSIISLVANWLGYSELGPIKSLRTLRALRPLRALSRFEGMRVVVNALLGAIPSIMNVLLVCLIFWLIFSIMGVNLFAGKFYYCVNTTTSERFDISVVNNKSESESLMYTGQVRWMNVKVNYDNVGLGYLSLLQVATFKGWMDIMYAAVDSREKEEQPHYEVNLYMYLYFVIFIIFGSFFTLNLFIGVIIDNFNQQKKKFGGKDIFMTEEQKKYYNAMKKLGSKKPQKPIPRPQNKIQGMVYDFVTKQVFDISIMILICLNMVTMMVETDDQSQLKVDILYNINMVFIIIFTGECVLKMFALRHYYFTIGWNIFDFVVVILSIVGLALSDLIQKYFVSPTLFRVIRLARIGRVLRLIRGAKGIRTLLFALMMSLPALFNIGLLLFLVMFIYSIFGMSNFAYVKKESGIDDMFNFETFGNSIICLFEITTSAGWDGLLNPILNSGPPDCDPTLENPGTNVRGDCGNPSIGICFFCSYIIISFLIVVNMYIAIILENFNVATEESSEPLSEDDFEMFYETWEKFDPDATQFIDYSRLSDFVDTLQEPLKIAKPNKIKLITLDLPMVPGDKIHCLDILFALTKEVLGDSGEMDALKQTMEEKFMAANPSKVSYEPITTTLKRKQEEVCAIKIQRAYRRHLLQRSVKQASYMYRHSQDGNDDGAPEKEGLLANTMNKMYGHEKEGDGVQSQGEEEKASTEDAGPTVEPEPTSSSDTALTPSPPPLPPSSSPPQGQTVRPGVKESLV

Columns and labels:
Test in all cases: cell-based
[1] = molecular target: T1, hNaV1.7 (Homo sapiens, UniProt Q15858)
T1 construct: expressed in transfected cells; host or cells: HEK293T

[2] = molecular target: T2, mNaV1.6 (Mus musculus, UniProt Q9WTU3)
T2 construct: expressed in transfected cells; host or cells: HEK293T

[3] = molecular target: T3, rNaV1.2 (Rattus norvegicus, UniProt P04775)
T3 construct: expressed in transfected cells; host or cells: HEK293T

[4] = molecular target: T4, rNaV1.4 (Rattus norvegicus, UniProt P15390)
T4 construct: expressed in transfected cells; host or cells: HEK293T

[5] = molecular target: T5, rNaV1.3 (Rattus norvegicus, UniProt P08104)
T5 construct: expressed in transfected cells; host or cells: HEK293T

In the case of `CC[C@H](C)[C@H](NC(=O)[C@H](CCCCN)NC(=O)[C@H](Cc1ccc(O)cc1)NC(=O)[C@H](CCCCN)NC(=O)[C@@H]1CSSC[C@@H]2NC(=O)[C@H](CCC(=O)O)NC(=O)[C@H](CC(=O)O)NC(=O)[C@H](CCCCN)NC(=O)CNC(=O)[C@@H]3CCCN3C(=O)[C@H]([C@@H](C)O)NC(=O)[C@@H]3CSSC[C@H](NC(=O)[C@H](C(C)C)NC(=O)[C@H](Cc4c[nH]cn4)NC(=O)[C@H](CC(N)=O)NC(=O)[C@@H]4CCCN4C(=O)[C@H](CSSC[C@H](NC(=O)[C@H](C)N)C(=O)N[C@@H](CCCCN)C(=O)NCC(=O)N[C@@H]([C@@H](C)CC)C(=O)N[C@@H](Cc4ccccc4)C(=O)N[C@@H](C(C)C)C(=O)N[C@@H]([C@@H](C)O)C(=O)N3)NC2=O)C(=O)N[C@@H](CO)C(=O)N[C@@H](CO)C(=O)N[C@@H](CCCCN)C(=O)N[C@@H](Cc2c[nH]cn2)C(=O)N[C@@H](CCCCN)C(=O)N[C@@H](Cc2c[nH]c3ccccc23)C(=O)N1)C(=O)O` [Cl6b], the IC50 [1] is reported as 18.8 ± 2.4 nM, the IC50 [2] is reported as 12.6 ± 0.3 nM and the IC50 [3] is reported as 35.6 ± 7.3 nM. It also gave an IC50 [4] of 51.5 ± 6.9 nM and an IC50 [5] of 61.6 ± 15.2 nM.
